# How the values were obtained:
# Format in all cases: binding
# [1] = biological target: T1, HIV-1 YU2 gp120 glycoprotein D368A/S375A (Human immunodeficiency virus type 1 group M subtype B, UniProt P35961, D363A/S370A)
# T1 construct: (His)6 (C); made in house; host or cells: 293F cells
# [2] = biological target: T2, HIV-1 YU2 gp120 glycoprotein S375A (Human immunodeficiency virus type 1 group M subtype B, UniProt P35961, S370A)
# T2 construct: (His)6 (C); made in house; host or cells: 293F cells
# [3] = biological target: T3, HIV-1 YU2 gp120 glycoprotein D368A (Human immunodeficiency virus type 1 group M subtype B, UniProt P35961, D363A)
# T3 construct: (His)6 (C); made in house; host or cells: 293F cells
# [4] = biological target: T4, HIV-1 YU2 gp120 glycoprotein V430A (Human immunodeficiency virus type 1 group M subtype B, UniProt P35961, V417A)
# T4 construct: (His)6 (C); made in house; host or cells: 293F cells
substance,measurement,setting,value
NBD-556,Kd,[1],260 nM
same,Kd,[2],310 nM
same,Kd,[3],2200 nM
same,Kd,[4],3500 nM
